Results of unrelated studies side by side (data: NIAID ChemDB).

Shared fields: whole-cell or culture tests; organism: HIV-1; cell line: MT-4; measure: EC50

Rows are shuffled and stem from different studies. Blank or dashed fields: not listed here. ECn: concentration that inhibits the pathogen or its effect by n%.

smiles	read by	changes	strain or isolate	result
O=S1(=O)N=C(Nc2ccc(Br)cc2)C=C(Cc2cccc3ccccc23)N1	MTT		IIIB	23 µM
O=C(NCCCCCCN1CCCN(CCCCCCNC(=O)OCc2ccccc2)CCCN(CCCCCCNC(=O)OCc2ccccc2)CCN(CCCCCCNC(=O)OCc2ccccc2)CCC1)OCc1ccccc1	syncytia		LAV	>1 µM
CC(=O)c1cccc(-n2nnnc2SCC(=O)Nc2ccccc2Cl)c1	p24			<10 µM
O=C(NCCCCCN1CCCN(CCCCCNC(=O)OCc2ccccc2)CCN(CCCCCNC(=O)OCc2ccccc2)CCCN(CCCCCNC(=O)OCc2ccccc2)CC1)OCc1ccccc1	syncytia		LAV	>10 µM
C[C@H](Cn1cnc2c(N)ncnc21)OCP(=O)(O)O	cytopathic effect / MTT	HXB2-RTwt	HXB2	0.48 µM
CC(C)c1nc(C(=O)NCc2ccc(F)cc2)c([O-])c(=O)n1C.CC(C)c1nc(C(=O)NCc2ccc(F)cc2)c([O-])c(=O)n1C.[Mg+2]	MTT		IIIB	0.025 µM
Cc1nc(CCCCCCC(=O)c2ccccc2)n2nc(-n3ccnn3)ccc12	cytopathic effect		RF	0.72 µM
O=C(NCCCCCN1CCCN(CCCCCNC(=O)OCc2ccccc2)CCCN(CCCCCNC(=O)OCc2ccccc2)CCN(CCCCCNC(=O)OCc2ccccc2)CCC1)OCc1ccccc1	syncytia		LAV	>1 µM
COCc1cn([C@H]2C[C@H](N=[N+]=[N-])[C@@H](CO)O2)c(=O)[nH]c1=O	cytopathic effect / trypan blue		IIIB	42 µM
N#Cc1ccc(Nc2nc(Cc3c(Cl)cccc3Cl)nc(NO)n2)cc1	cytopathic effect / MTT	RT-K103N Y181C	NNRTI-resistant (RT K103N Y181C)	0.353 µM
CCCC(C)(C)[Si](C)(C)OC[C@H]1O[C@@H](n2cc(C)c(=O)n(CC(=O)O)c2=O)[C@H](O[Si](C)(C)C(C)(C)CCC)[C@@H]1O	cytopathic effect / trypan blue		IIIB	>10 µM
Cc1cc(C)c(-n2nnnc2SCC(=O)Nc2ccc(C#N)cc2Cl)c(C)c1	p24			<10 µM
COc1cc(NC2=NS(=O)(=O)NC(Cc3ccc4ccccc4c3)=C2)cc(OC)c1OC	MTT		IIIB	>204 µM
N#Cc1ccc(Nc2nc(N)nc(Cc3c(Cl)cccc3Cl)n2)cc1	cytopathic effect / MTT	RT-K103N Y181C	NNRTI-resistant (RT K103N Y181C)	1.4 µM
Cc1cc(C)c(Oc2ncc(N)c(Nc3ccc(C#N)cc3)n2)c(C)c1	MTT		IIIB	0.0072 µM
Cc1cn([C@H]2C[C@H](N=[N+]=[N-])[C@@H](COP(=O)(OCCSC(=O)C(C)(C)C)OCCSC(=O)C(C)(C)C)O2)c(=O)[nH]c1=O	cytopathic effect / MTT		IIIB	0.81 µM
O=C(O)C(=O)CC(=O)c1cc(OCc2ccccc2)cc(OCc2ccccc2)c1	p24		IIIB	<17.4 µM
Cc1cn([C@@H]2O[C@H](CO[Si](C)(C)C(C)(C)C)[C@@H](O[Si](C)(C)C(C)(C)C)[C@H]2O)c(=O)n(CCO)c1=O	cytopathic effect / trypan blue		IIIB	32 µM
CC(C)(C)NC(=O)[C@@H]1CC2CCCCC2CN1C[C@@H](OC(=O)CCCCNC(=O)O[C@H]1[C@@H](C2COC(C)(C)O2)OC2OC(C)(C)O[C@H]21)[C@H](Cc1ccccc1)NC(=O)[C@H](CC(N)=O)NC(=O)c1ccc2ccccc2n1.O=C(O)C(F)(F)F.O=C(O)C(F)(F)F.O=C(O)C(F)(F)F.O=C(O)C(F)(F)F	cytopathic effect / MTT		IIIB	7.1 µM
CC(=O)Nc1cnc(Oc2c(C)cc(C)cc2C)nc1Nc1ccc(C#N)cc1	MTT		RES056	>323 µM
NCCCN1CCCN(CCCN)CCN(CCCN)CCCN(CCCN)CC1	syncytia		LAV	>50 µM
Nc1ncnc2c1ccn2[C@H]1CC[C@@H](CO)O1	cytopathic effect / trypan blue		IIIB	>25 µM
Cc1c(O)cccc1C(=O)N[C@@H](CSc1ccccc1)[C@@H](CN1C[C@H]2CCCC[C@H]2C[C@H]1C(=O)NC(C)(C)C)OC(=O)CCCCNC(=O)O[C@H]1[C@@H](C2COC(C)(C)O2)OC2OC(C)(C)O[C@H]21.O=C(O)C(F)(F)F.O=C(O)C(F)(F)F	cytopathic effect / MTT		IIIB	>10 µM
N#Cc1ccc(Nc2nc(Oc3c(Cl)cc(Cl)cc3Cl)ncc2N)cc1	MTT		IIIB	0.01155 µM
Cc1nc(CCCCCCC(=O)c2ccccc2)n2nc(-n3cncc3C)ccc12	cytopathic effect		RF	0.01 µM
C1CNCCNCCCN[C@H]([C@@H]2CNCCCNCCNCCCN2)CNC1	MTT		IIIB	0.1 µg/mL
O=C([O-])c1cn(CCO)c2ccc(Cc3ccccc3)cc2c1=O.O=C([O-])c1cn(CCO)c2ccc(Cc3ccccc3)cc2c1=O.[Mg+2]	MTT		IIIB	4.5 µM
CSc1ccc2c(C)nc(CCCCCCC(=O)c3ccccc3)n2n1	cytopathic effect		RF	0.63 µM
Cc1cn([C@@H]2O[C@H](CO[Si](C)(C)C(C)(C)C)[C@@H](O)[C@H]2O[Si](C)(C)C(C)(C)C)c(=O)n(CC#N)c1=O	cytopathic effect / trypan blue		IIIB	>2 µM
COc1cc(NC2=NS(=O)(=O)NC(Cc3ccccc3)=C2)cc(OC)c1OC	MTT		IIIB	>310 µM
CC(C)(C)NC(=O)[C@@H]1CN(Cc2cccnc2)CCN1C[C@@H](O)C[C@@H](Cc1ccccc1)C(=O)N[C@H]1c2ccccc2C[C@H]1O	cytopathic effect / MTT		NL4-3 PR-S12T I15V I19L M36I R41K H69K L89M I93L CLONE 6( C )	0.0064 µM
N#Cc1ccc(Nc2nc(Oc3ccc(-c4ccc(C#N)cc4)cc3[N+](=O)[O-])c3sccc3n2)cc1	MTT		IIIB	0.0078 µM
COc1ccc(CN=C2C=C(Cc3ccccc3)NS(=O)(=O)N2)cc1	MTT		IIIB	>300 µM
COc1ccc(NC(=O)CSc2nnnn2-c2c(C)cc(C)cc2C)c(C)c1	p24			<10 µM
CC(C)(C)NC(=O)[C@@H]1C[C@@H]2CCCC[C@@H]2CN1C[C@@H](O)[C@H](Cc1ccccc1)NC(=O)[C@H](CC(N)=O)NC(=O)c1ccc2ccccc2n1	cytopathic effect / MTT		IIIB	0.018 µM
Cc1cc(C)c(-n2nnnc2SCC(=O)Nc2cccnc2Cl)c(C)c1	p24			<10 µM
Cc1nc(CCCCCCCC(=O)c2ccccc2)n2nc(Cl)ccc12	cytopathic effect		RF	25 µM
Cc1cc(C=O)cc(C)c1Oc1ncc(N)c(Nc2ccc(C#N)cc2)n1	MTT		RES056	8.48 µM
O=c1[nH]cnc2c1ncn2[C@H]1CC[C@@H](CO)O1	p24		IIIB)(ddC	25.3 µM
Cc1cc(-c2ccc(C#N)cc2)cc(C)c1Oc1nc(Nc2ccc(C#N)cc2)nc2ccsc12	MTT	Y188L	IIIB	0.0507 µM
C1CNCCNCCCN(CCCN2CCCNCCNCCCNCC2)CCNC1	MTT		IIIB	0.1 µg/mL
CC(=O)Nc1cnc(Oc2c(Cl)cccc2Cl)nc1Nc1ccc(C#N)cc1	MTT		IIIB	32.3 µM
Cc1cn([C@H]2C[C@H](N=[N+]=[N-])[C@@H](COP(=O)(O)O)O2)c(=O)[nH]c1=O			IIIB	0.022 µM
Cc1ccnc2c1NC(=O)c1cccnc1N2C1CC1	MTT	F227L V106A	IIIB	>15.9 µM
CCN1c2ncccc2N(C)C(=S)c2oc3cccnc3c21	cytopathic effect		HE	0.5 µM
Cc1nc(CCCCCCC(O)c2ccccc2)n2nc(Cl)ccc12	cytopathic effect		RF	0.86 µM
CC(C)(C)NC(=O)[C@@H]1CC2CCCCC2CN1C[C@@H](OC(=O)CCC(=O)O[C@H]1[C@@H](C2COC(C)(C)O2)OC2OC(C)(C)O[C@H]21)[C@H](Cc1ccccc1)NC(=O)[C@H](CC(N)=O)NC(=O)c1ccc2ccccc2n1.O=C(O)C(F)(F)F.O=C(O)C(F)(F)F	cytopathic effect / MTT		IIIB	0.109 µM
Cc1cn([C@@H]2O[C@H](CO[Si](C)(C)C(C)(C)C)[C@@H](O[Si](C)(C)C(C)(C)C)[C@H]2O)c(=O)n(CC(=O)ON)c1=O	cytopathic effect / trypan blue		IIIB	>2 µM
C1CNCCNCCCNCCNC1	syncytia		LAV	10 µM
CCN1c2cc(C)c(C)cc2N(C)S(=O)(=O)c2cccnc21	cytopathic effect		IIIB	0.2 µM
Nc1ccn([C@H]2CC[C@@H](CO)O2)c(=O)n1	MTT		IIIB	1.4 µM
Cc1cn([C@H]2C[C@H](N=[N+]=[N-])[C@@H](CO[Si](C)(C)C(C)(C)C)O2)c(=O)n(CC(=O)O)c1=O	cytopathic effect / trypan blue		IIIB	>50 µM
Cc1ccc(NC2=NS(=O)(=O)NC(Cc3ccccc3)=C2)cc1Cl	MTT		IIIB	>175 µM
Nc1nc(NC2CC2)c2ncn([C@H]3C=C[C@@H](CO)C3)c2n1	cytopathic effect / MTT	RD 22-RTwt		1.12 µM
O=C(O)c1cn(CCO)c2ccc(Cc3ccccc3)cc2c1=O	MTT		IIIB	3.1 µM
NC(=O)c1cn([C@H]2CC[C@@H](CO)O2)c2ncnc(N)c12	cytopathic effect / trypan blue		IIIB	64 µM
CC(C)(C)NC(=O)[C@@H]1C[C@@H]2CCCC[C@@H]2CN1C[C@@H](O)[C@H](Cc1ccccc1)NC(=O)[C@H](CC(N)=O)NC(=O)c1ccc2ccccc2n1	cytopathic effect / MTT		NL4-3 PR S12T I15V I19L M36I R41K H69K L89M CLONE 5( C )	0.0029 µM
NCCCCN1CCCN(CCCCN)CCCN(CCCCN)CCN(CCCCN)CCC1	syncytia		LAV	>10 µM
O=S1(=O)NC(Cc2ccc3ccccc3c2)=CC(=NCCc2ccccc2)N1	MTT		IIIB	>141 µM
N#Cc1ccc(Nc2nc(Oc3c(Cl)cc(Cl)cc3Cl)ncc2NC(=O)C(F)(F)F)cc1	MTT		IIIB	0.0636 µM
N#Cc1ccc(NC2=NS(=O)(=O)NC(Cc3cccc4ccccc34)=C2)cc1	MTT		IIIB	>250 µM
COc1ncccc1NC(=O)CSc1nnnn1-c1c(C)cc(C)cc1C	p24			<10 µM
Cc1nc(CCCCCCCc2ccccc2)n2nc(Cl)ccc12	cytopathic effect		RF	>250 µM
O=C(OCc1ccccc1)N(CCCCCN1CCCN(CCCCCN(Cc2ccccc2)C(=O)OCc2ccccc2)CCCN(CCCCCN(Cc2ccccc2)C(=O)OCc2ccccc2)CCN(CCCCCN(Cc2ccccc2)C(=O)OCc2ccccc2)CCC1)Cc1ccccc1	syncytia		LAV	>1 µM
[N-]=[N+]=N[C@H]1C[C@H](n2cc(CO)c(=O)[nH]c2=O)O[C@@H]1CO	cytopathic effect / trypan blue		IIIB	24 µM
Cc1ccccc1Cc1cccc(C(=O)CC(=O)C(=O)O)c1	p24		IIIB	<0.61 µM
Cc1cc(C)c(-n2nnnc2SCC(=O)Nc2ccc(C)c([N+](=O)[O-])c2)c(C)c1	p24			<10 µM
CC(=O)Nc1cnc(Oc2c(C)cc(C=O)cc2C)nc1Nc1ccc(C#N)cc1	MTT		IIIB	29 µM
Cc1ccc(CN=C2C=C(Cc3ccc4ccccc4c3)NS(=O)(=O)N2)cc1	MTT		IIIB	>144 µM
Cc1nc(CCCCCCC(O)c2ccccc2)n2nc(-n3ccnc3)ccc12			RF	<0.03 µM
Nc1ncnc2c1ccn2[C@H]1C=C[C@@H](CO)O1	cytopathic effect / trypan blue		IIIB	205 µM
Nc1ccn([C@H]2CC[C@@H](CO)O2)c(=O)n1	p24	RT-M184V	126 3TC (RT-M184V)	2.8 µM
Cc1cc(Br)cc(C)c1Oc1ncc([N+](=O)[O-])c(Nc2ccc(C#N)cc2)n1	MTT		RES056	≥202 µM
Cc1ccccc1NC(=O)CSc1nnnn1-c1cccc2ccccc12	p24			<10 µM
Cc1ccnc2c1NC(=O)c1cccnc1N2C1CC1	MTT		IIIB	0.18 µM
Cc1ccnc(C(=O)CC(=O)c2cccc(Cc3ccccc3)c2)c1	p24		IIIB	<5 µM
CC(C)(C)[Si](C)(C)OC[C@H]1O[C@@H](n2cnc3c(=O)n(CC(=O)O)cnc32)[C@H](O[Si](C)(C)C(C)(C)C)[C@@H]1O	cytopathic effect / trypan blue		IIIB	≥50 µM
O=C(NCCCCN1CCCN(CCCCNC(=O)OCc2ccccc2)CCN(CCCCNC(=O)OCc2ccccc2)CCCN(CCCCNC(=O)OCc2ccccc2)CC1)OCc1ccccc1	syncytia		LAV	>10 µM

11 of the rows above, restated:

smiles	read by	changes	strain or isolate	result
[N-]=[N+]=N[C@H]1C[C@H](n2cc(CO)c(=O)[nH]c2=O)O[C@@H]1CO	cytopathic effect / trypan blue		IIIB	24 µM
CC(C)(C)NC(=O)[C@@H]1C[C@@H]2CCCC[C@@H]2CN1C[C@@H](O)[C@H](Cc1ccccc1)NC(=O)[C@H](CC(N)=O)NC(=O)c1ccc2ccccc2n1	cytopathic effect / MTT		NL4-3 PR S12T I15V I19L M36I R41K H69K L89M CLONE 5( C )	0.0029 µM
Cc1cc(C)c(-n2nnnc2SCC(=O)Nc2cccnc2Cl)c(C)c1	p24			<10 µM
COc1ccc(CN=C2C=C(Cc3ccccc3)NS(=O)(=O)N2)cc1	MTT		IIIB	>300 µM
C1CNCCNCCCN(CCCN2CCCNCCNCCCNCC2)CCNC1	MTT		IIIB	0.1 µg/mL
Cc1cn([C@H]2C[C@H](N=[N+]=[N-])[C@@H](COP(=O)(O)O)O2)c(=O)[nH]c1=O			IIIB	0.022 µM
Nc1nc(NC2CC2)c2ncn([C@H]3C=C[C@@H](CO)C3)c2n1	cytopathic effect / MTT	RD 22-RTwt		1.12 µM
Cc1ccc(NC2=NS(=O)(=O)NC(Cc3ccccc3)=C2)cc1Cl	MTT		IIIB	>175 µM
Cc1cc(-c2ccc(C#N)cc2)cc(C)c1Oc1nc(Nc2ccc(C#N)cc2)nc2ccsc12	MTT	Y188L	IIIB	0.0507 µM
Nc1ncnc2c1ccn2[C@H]1CC[C@@H](CO)O1	cytopathic effect / trypan blue		IIIB	>25 µM
CC(C)(C)NC(=O)[C@@H]1CC2CCCCC2CN1C[C@@H](OC(=O)CCC(=O)O[C@H]1[C@@H](C2COC(C)(C)O2)OC2OC(C)(C)O[C@H]21)[C@H](Cc1ccccc1)NC(=O)[C@H](CC(N)=O)NC(=O)c1ccc2ccccc2n1.O=C(O)C(F)(F)F.O=C(O)C(F)(F)F	cytopathic effect / MTT		IIIB	0.109 µM